In patent US20190359693A1, “Binding molecules directed against influenza hemagglutinin and uses thereof” (published 2019):

Key:
[1] = molecular target: HA of H1N1 A/California/07/2009 (influenza A virus); assay: cell-based or functional assay
[2] = molecular target: HA of H1N1 A/California/07/2009 (influenza A virus); assay: AlphaLISA competition vs CR9114
[3] = molecular target: HA of H1N1 A/California/07/2009 (influenza A virus); assay: AlphaLISA competition vs SD1038

For SD1036 (VHH), the VNA titer [1] was > 1000 nM, the pIC50 [2] was < 7 and the pIC50 [3] was < 7.
